Anti-infective test results gathered from many reports (values: NIAID ChemDB through PubChem).

All rows: enzyme or target tests; organism: Pneumocystis carinii; target: DHFR; read-out: IC50

Rows are shuffled and stem from different studies.

CCc1nc2nc(N)nc(N)c2nc1CC ; result: 0.62 µM
COc1ccc(OC)c(CCc2cnc3nc(N)nc(N)c3n2)c1 ; result: 19.3 µM
COc1ccc(N2C(N)=NC(N)=NC2(C)C)c(OC)c1OC ; result: 20.4 µM
COc1ccc(OC)c(C2COc3nc(N)[nH]c(=O)c32)c1 ; result: 30 µM
COc1cc(N(C)Cc2csc3nc(N)nc(N)c23)cc(OC)c1OC ; result: >10 µM
CCCOc1cccc2nc(N)nc(N)c12 ; result: 0.96 µM
CC(C)Cc1nc2nc(N)nc(N)c2nc1CC(C)C ; result: 0.082 µM
Nc1nc2occ(-c3ccc(C(=O)N[C@@H](CCC(=O)O)C(=O)O)cc3)c2c(=O)[nH]1 ; result: 110 µM
Nc1nc(N)c2cc(Cl)ccc2n1 ; result: 3.6 µM
Nc1nc(N)c2nc(CCc3ccc4ccccc4c3)cnc2n1 ; result: 0.52 µM
CCOC(=O)CC[C@H](NC(=O)c1ccc(C2COc3nc(N)[nH]c(=O)c32)cc1)C(=O)OCC ; result: >300 µM
Nc1nc(N)c2c(I)cccc2n1 ; result: 0.52 µM
Nc1nc2c(c(=O)[nH]1)C(c1ccccc1F)C([N+](=O)[O-])O2 ; result: 50 µM
Nc1nc(N)c2nc(Cc3ccc4ccccc4c3)c(Cc3ccc4ccccc4c3)nc2n1 ; result: 4 µM
COc1ccc(C2c3c(nc(N)[nH]c3=O)OC2[N+](=O)[O-])cc1OC ; result: 100 µM
Nc1nc(N)c2nc3c(ccc4ccccc43)nc2n1 ; result: 18.4 µM
Nc1nc(N)c2c(CNc3cc(Cl)c(-n4cccc4)c(Cl)c3)csc2n1 ; result: >10 µM
CCOc1cccc2nc(N)nc(N)c12 ; result: 4.7 µM
Nc1nc(N)c2nc(CCc3ccc(C(F)(F)F)cc3)cnc2n1 ; result: 3.8 µM
CCc1nc2nc(N)nc(N)c2nc1-c1ccccc1OC ; result: 2 µM
Cl.Nc1nc(N)c2nc(CCc3ccccn3)cnc2n1 ; result: 57.1 µM
Nc1nc(N)c2cc(C(F)(F)F)ccc2n1 ; result: 2.7 µM
COc1cc(CCc2cnc3nc(N)nc(N)c3n2)cc(OC)c1OC ; result: 6 µM
Nc1nc2occ(-c3c(F)cccc3F)c2c(=O)[nH]1 ; result: 100 µM

Repeating the final 3 entries:

structure	result
Nc1nc(N)c2cc(C(F)(F)F)ccc2n1	2.7 µM
COc1cc(CCc2cnc3nc(N)nc(N)c3n2)cc(OC)c1OC	6 µM
Nc1nc2occ(-c3c(F)cccc3F)c2c(=O)[nH]1	100 µM

ICn: concentration for n% inhibition.